Data source: PubChem BioAssay AID624099 (ICCB-Longwood, 2012)

Purpose: 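Host factors E2 relies on to silence an HPV18 LCR reporter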 (primary screen)
Cells: human C33A cervical carcinoma cells (HPV-negative) stably expressing BPV1 E2 and an HPV18 LCR luciferase reporter
Reagents: siRNA pool against human genes, 40 nM
Duration: 72 h
Measured: 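Per-well luciferase luminescence, z-scored on each plate against the plate mean and SD with control wells left out, then averaged across three replicate plates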
Direction: mean z-score and z-score: higher = stronger reporter signal, weaker E2 silencing
Active means: 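Mean z ≥ 2 together with z ≥ 2 in two or more of the three replicates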
This is an unselected part of about 21,000 deposited reagents. Over the whole deposit, 497 (2.4%) got an active call. 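Higher z means weaker E2 silencing; only reporter increases were scored, and knock-downs that hurt cell survival may mask genuine repressor factors.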 The numbers tell different reagents against one gene apart. Reagent sequences are not shown.

Against LOC401607 (retired record), the entry reads mean z-score 1.3; z-score, replicate A = 1.25; z-score, replicate B = 1.48; z-score, replicate C = 1.17; inactive.
Silencing of CDYL2 resulted in: mean z-score 1.02; z-score, replicate A = 1.29; z-score, replicate B = 0.95; z-score, replicate C = 0.81; inactive.
For DCP2, the entry reads mean z-score 0.94; z-score, replicate A = 1.31; z-score, replicate B = 0.46; z-score, replicate C = 1.06; inactive.
Against CAMK2N2 the deposit lists mean z-score -0.1; z-score, replicate A = 0.08; z-score, replicate B = -0.34; z-score, replicate C = -0.05; inactive.
With knock-down of CRACR2A, the screen gave mean z-score 0.89; z-score, replicate A = 0.88; z-score, replicate B = 0.87; z-score, replicate C = 0.93; inactive.
With knock-down of C8orf34 the results were mean z-score 0.09; z-score, replicate A = -0.06; z-score, replicate B = 0.26; z-score, replicate C = 0.07; inactive.
Silencing of MYL10 came out at: mean z-score -0.18; z-score, replicate A = -0.16; z-score, replicate B = 0.15; z-score, replicate C = -0.52; inactive.
EGFL6 gave mean z-score -0.76; z-score, replicate A = -0.9; z-score, replicate B = -0.8; z-score, replicate C = -0.58; inactive.
After knock-down of ASB2, the record shows mean z-score -0.76; z-score, replicate A = -0.77; z-score, replicate B = -0.67; z-score, replicate C = -0.84; inactive.
Against EIF4E1B the deposit lists mean z-score -0.4; z-score, replicate A = -0.77; z-score, replicate B = -0.03; z-score, replicate C = -0.39; inactive.
EIF5 showed mean z-score 0.24; z-score, replicate A = 0.15; z-score, replicate B = 0.25; z-score, replicate C = 0.3; inactive.
After knock-down of TRPM6 the results were mean z-score 1.61; z-score, replicate A = 1.17; z-score, replicate B = 2.02; z-score, replicate C = 1.65; inactive.
For ZSWIM8 #1 the deposit lists mean z-score -2.52; z-score, replicate A = -2.42; z-score, replicate B = -2.42; z-score, replicate C = -2.72; inactive.
For ZSWIM8 #2, the values are mean z-score 2.11; z-score, replicate A = 2.02; z-score, replicate B = 1.95; z-score, replicate C = 2.35; active.

Targets listed so far whose target name begins with C or c (4):
CDYL2 — mean z-score = 1.02; z-score, replicate A = 1.29; z-score, replicate B = 0.95; z-score, replicate C = 0.81; call = inactive
CAMK2N2 — mean z-score = -0.1; z-score, replicate A = 0.08; z-score, replicate B = -0.34; z-score, replicate C = -0.05; call = inactive
CRACR2A — mean z-score = 0.89; z-score, replicate A = 0.88; z-score, replicate B = 0.87; z-score, replicate C = 0.93; call = inactive
C8orf34 — mean z-score = 0.09; z-score, replicate A = -0.06; z-score, replicate B = 0.26; z-score, replicate C = 0.07; call = inactive
